Values from PubChem BioAssay AID1259414 (Drosophila RNAi Screening Center, 2018)
The screen tested about 24,000 reagents; below is an unselected part of those with a known target gene and a result. Over the whole deposit, about 1,210 (5%) got an active call. 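Inactive calls also include excluded dsRNAs with several or no targets, genes unexpressed in JW18, and well A1, regardless of score.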 A plus sign joins genes that one reagent is predicted to hit.

Purpose: 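Host factors increasing or decreasing Wolbachia levels in cultured fly cells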 (primary screen)
Cells: Drosophila JW18 cells infected with Wolbachia
Knock-down reagent: long dsRNA against Drosophila genes, 0.25 µg dsRNA per well of a 384-well plate
Timing: 5 days
Conditions: cells persistently infected with Wolbachia before knock-down; no added drug
Measurement: 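Imaged fluorescence in situ signal for Wolbachia 23S rRNA per DAPI-counted host cell, given as a robust z-score within each plate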
Scale: Wolbachia per cell robust z: higher = more Wolbachia per host cell than the plate typical
Active means: 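Hit when robust z is 1.5 or more, or -1.5 or less, in at least two of three replicates; excludes dsRNAs with several or no targets, genes not expressed in JW18 and well A1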

predicted target | PubChem SID | Wolbachia per cell robust z, rep 1 | Wolbachia per cell robust z, rep 2 | Wolbachia per cell robust z, rep 3 | call
CG13229 (GeneID 36168) | SID104186141 | 0.877 | 0.522 | 0.809 | inactive
Hr4 (GeneID 31162) | SID104198391 | 1.52 | 0.376 | 1.76 | active
Hr4 (GeneID 31162) | SID104202437 | 0.203 | -2.05 | 0.927 | inactive
Hr4 (GeneID 31162) | SID104202608 | 0.139 | -0.353 | -0.361 | inactive
Hr4 (GeneID 31162) | SID104203676 | -1.21 | 0.645 | 2.23 | inactive
Hr4 (GeneID 31162) | SID104206401 | 0.372 | -1.05 | -0.821 | inactive
Hr4 (GeneID 31162) | SID104206842 | 0.442 | 0.313 | -0.278 | inactive
Ets97D (GeneID 43236) | SID104196457 | 0.597 | 0.397 | 0.964 | inactive
Ets97D (GeneID 43236) | SID104206226 | 0.244 | -2.83 | 0.356 | inactive
GAPsec (GeneID 38987) | SID104190356 | -0.744 | -6.9 | 0.291 | inactive
GAPsec (GeneID 38987) | SID104204672 | 0.0343 | -1.5 | -0.163 | inactive
Mocs2B + Mocs2A | SID104193489 | -2.12 | -0.238 | -0.812 | inactive
Mocs2B + Mocs2A | SID104194011 | 0.396 | 0.0668 | -0.0773 | inactive
CG12496 (GeneID 31226) | SID104198394 | 0.654 | 0.724 | 0.192 | inactive
CG12496 (GeneID 31226) | SID104207120 | 0.149 | -0.032 | -0.971 | inactive
Pect (GeneID 34716) | SID104182659 | 0.155 | -0.979 | -0.312 | inactive
Pect (GeneID 34716) | SID104182660 | 2.41 | 0.867 | 1.71 | active
CG33137 (GeneID 36449) | SID104201685 | -1.13 | -1.77 | -1.42 | inactive
CG18823 (GeneID 59184) | SID104197960 | -0.224 | -6.8 | 0.246 | inactive
CG5199 (GeneID 40265) | SID104191562 | 0.305 | 0.467 | -0.74 | inactive
ase (GeneID 30985) | SID104198531 | 0.99 | 1.66 | 1 | inactive
Epg5 (GeneID 42256) | SID104194570 | -5.23 | 1.63 | -2.79 | active
alpha-Man-Ib (GeneID 43436) | SID104194210 | 0.648 | -7.1 | -0.474 | inactive
alpha-Man-Ib (GeneID 43436) | SID104204675 | -0.456 | -0.0911 | 0.184 | inactive
rngo (GeneID 32616) | SID104199695 | -1.7 | -1.58 | 0.83 | active
rngo (GeneID 32616) | SID104205480 | -0.859 | 0.00974 | -0.363 | inactive
spn-D (GeneID 318579) | SID104202047 | 0.369 | 0.601 | -0.983 | inactive
Socs16D (GeneID 32760) | SID104202522 | 0.0187 | -0.259 | 2.08 | inactive
Socs16D (GeneID 32760) | SID104205382 | -0.371 | -0.183 | -0.315 | inactive
grau (GeneID 45871) | SID104184483 | 0.415 | 1.04 | 0.0358 | inactive
grau (GeneID 45871) | SID104205874 | -6.42 | -3.07 | -0.789 | active
AttB (GeneID 36637) | SID104186526 | -0.0717 | 0.153 | 0.988 | inactive
AttB (GeneID 36637) | SID104207541 | -3.47 | -0.859 | 0.626 | inactive
grim (GeneID 40014) | SID104202526 | 0.416 | 0.232 | -0.591 | inactive
mop (GeneID 39610) | SID104190857 | 0.533 | 1.04 | 0.984 | inactive
mop (GeneID 39610) | SID104207033 | 1.96 | 1.86 | 1.64 | active
GXIVsPLA2 (GeneID 39734) | SID104190035 | 0.691 | 1.27 | 1.14 | inactive
GXIVsPLA2 (GeneID 39734) | SID104207905 | 0.262 | -1.81 | -0.565 | inactive
Urod (GeneID 35986) | SID104187361 | -2.52 | 0.126 | -2.89 | active
Urod (GeneID 35986) | SID104208551 | 0.132 | -0.138 | -4.33 | inactive

Next part, starting with the last 3 of the part before.
predicted target | PubChem SID | Wolbachia per cell robust z, rep 1 | Wolbachia per cell robust z, rep 2 | Wolbachia per cell robust z, rep 3 | call
GXIVsPLA2 (GeneID 39734) | SID104207905 | 0.262 | -1.81 | -0.565 | inactive
Urod (GeneID 35986) | SID104187361 | -2.52 | 0.126 | -2.89 | active
Urod (GeneID 35986) | SID104208551 | 0.132 | -0.138 | -4.33 | inactive
Papss (GeneID 40167) | SID104191038 | -2.43 | -1.41 | 0.754 | inactive
Papss (GeneID 40167) | SID104205645 | -0.795 | -1.3 | -0.542 | inactive
Vha68-2 (GeneID 45012) | SID104182513 | -0.373 | -5.75 | -0.102 | inactive
Vha68-2 (GeneID 45012) | SID104207181 | 1.07 | 1.95 | 0.771 | inactive
CG12171 (GeneID 40690) | SID104191992 | 0.168 | -0.685 | -0.283 | inactive
CG12171 (GeneID 40690) | SID104204085 | -0.788 | -2.24 | -1.62 | active
CG11035 (GeneID 40953) | SID104194079 | -0.825 | -0.201 | -0.555 | inactive
IP3K1 + hpRNA:CR18854 | SID104182010 | -1.2 | 0.574 | -1.02 | inactive
Crz (GeneID 41742) | SID104196407 | 0.493 | -3.25 | 1.09 | inactive
Swt1 (GeneID 32788) | SID104199820 | 0.886 | -6.21 | 0.371 | inactive
Hira (GeneID 31680) | SID104198464 | 0.543 | 0.291 | 0.325 | inactive
yps (GeneID 39377) | SID104203581 | 0.0403 | -0.62 | -1.12 | inactive
CG13738 (GeneID 39541) | SID104189857 | -1.73 | -0.0355 | 1.12 | inactive
CG13738 (GeneID 39541) | SID104202782 | -0.457 | 0.0776 | -1.04 | inactive
CG32829 (GeneID 318235) | SID104180753 | 0.313 | -6.35 | 0.00958 | inactive
CG32829 (GeneID 318235) | SID104202164 | -0.531 | -1.07 | -2.22 | inactive
lncRNA:CR30121 (GeneID 12798336) | SID104201212 | -0.956 | -1.73 | -1.23 | inactive
lncRNA:CR30121 (GeneID 12798336) | SID104205798 | 0.968 | 0.0334 | 0.976 | inactive
Nthl1 (GeneID 35365) | SID104182975 | -3.18 | 0.417 | 0.0521 | inactive
pip (GeneID 40104) | SID104191174 | -0.256 | -0.139 | -0.66 | inactive
pip (GeneID 40104) | SID104207123 | -5.57 | -8.94 | -7.6 | inactive
Cog6 (GeneID 35953) | SID104186598 | 1.54 | 0.341 | 0.958 | inactive
Cog6 (GeneID 35953) | SID104208110 | 1.67 | 0.543 | 0.337 | inactive
Ir76a (GeneID 40157) | SID104190779 | -2.11 | 1.04 | -0.0491 | inactive
CG17211 (GeneID 34639) | SID104182379 | -2.18 | 0.372 | -0.318 | inactive
CG2211 (GeneID 38157) | SID104188351 | -1.63 | 1.13 | 1 | inactive
Grasp65 (GeneID 40177) | SID104190709 | 0.333 | 0.108 | 0.476 | inactive
Grasp65 (GeneID 40177) | SID104207513 | 0.454 | 1.04 | -0.0295 | inactive
